Results of unrelated studies side by side (data: NIAID ChemDB).

Shared fields: tests on isolated targets; species: HIV-1; target: Integrase; read by: 3′ processing; read-out: IC50

Neighbouring rows are from separate reports. An empty or dashed field is not shown. ICn is the concentration giving n% inhibition.

compound	mutations	strain	conditions	result
O=C1c2c(O)cc(O)c(O)c2C(=O)c2c(O)cc(O)c(O)c21	-	-	-	1.3 µM
C[C@H](Cn1cnc2c(N)ncnc21)OCP(=O)(O)OP(=O)(O)OP(=O)(O)O	-	-	-	65 µM
CC(C)Oc1ccc(Cc2ccccc2)cc1C(=O)CC(=O)C(=O)O	-	-	-	4 µM
O=C(O)c1ccc2cc(/C=C/c3ccc(O)cc3)oc2c1O	-	-	-	>>100 µM
CC1COCCOC(=O)c2cccc(n2)C(=O)OCCOCC(C)O1	-	-	-	>250 µM
O=C(/C=C/c1ccc(O)c(O)c1)O[C@H]1CCCC[C@@H]1OC(=O)/C=C/c1ccc(O)c(O)c1	-	-	-	24.8 µM
Nc1ncnc2c1ncn2CCOCP(=O)(O)OP(=O)(O)OP(=O)(O)O	-	-	-	200 µM
O=C1Sc2cc3ccccc3cc2C(=O)N2CSCC12	-	-	-	92 µM
O=C1c2c(ccc(O)c2O)CN1Cc1cccc(Cl)c1	-	-	-	72 µM
O=NNc1ccc(S(=O)(=O)c2ccc(NN=O)cc2)cc1	-	-	-	6.5 µM
COc1ccc(S(=O)(=O)Oc2ccc(C(c3c(O)c4ccccc4oc3=O)c3c(O)c4ccccc4oc3=O)cc2)cc1	-	-	-	1.9 µM
COc1cc2c(cc1OC)C(=O)N1CSCC1C(=O)S2	-	RF	-	650 µM
O=c1oc2ccccc2c(O)c1C(c1ccc(OS(=O)(=O)c2cccc3ccccc23)cc1)c1c(O)c2ccccc2oc1=O	-	-	-	1.5 µM
CN(C)CCCNC(=O)c1cc(NC(=O)c2cc(NC(=O)c3cc(NC(=O)c4ccccc4C(=O)O)cn3C)cn2C)cn1C	-	-	-	>100 µM
CS(=O)(=O)Oc1ccc(C(c2c(O)c3ccccc3oc2=O)c2c(O)c3ccccc3oc2=O)cc1	-	-	-	23.7 µM
CN(C)[C@@H]1C(=O)C(C(N)=O)=C(O)[C@@]2(O)C(=O)C3=C(O)c4c(O)cccc4[C@@](C)(O)[C@H]3[C@H](O)[C@@H]12	-	-	Mn2+	>200 µM
CC(=O)/C(N=Nc1ccc(S(=O)(=O)c2ccc(N=N/C(C(C)=O)=C(/C)O)cc2)cc1)=C(\C)O	-	-	-	>100 µM
CS(=O)(=O)CS(=O)(=O)Nc1ccccc1CN1Cc2ccc(O)c(O)c2C1=O	-	-	-	>333 µM
NCCCCNCCCN	-	-	-	>100 µM
O=C=Nc1cccc(S(=O)(=O)c2cccc(N=C=O)c2)c1	-	-	-	100 µM
O=C1Sc2ccc(Cl)cc2C(=O)N2CS(=O)CC12	-	RF	-	237.5 µM
COc1cc2c(cc1OC)C13CC(=O)N(C(C)=O)N1CCCN3C2=O	-	-	-	>250 µM
COC(=O)C(=O)OC1(C(=O)O)C[C@@H](OC(=O)/C=C/c2ccc(O)c(O)c2)C(O)[C@H](OC(=O)/C=C/c2ccc(O)c(O)c2)C1	-	-	-	0.27 µg/mL
COc1ccc(-c2oc3cc(OC)c(OC)c(O)c3c(=O)c2O)cc1O	-	-	-	>250 µM
O=C(O)c1cc2ccccc2c(N=Nc2ccc(S(=O)(=O)Nc3nccs3)cc2)c1O	-	-	Mg2+	16 µM
Cc1cn([C@H]2C[C@@H]3OP(=O)(O)OC[C@H]4O[C@@H](n5cnc6c(=O)[nH]c(N)nc65)C[C@@H]4OP(=O)(O)OC[C@H]3O2)c(=O)[nH]c1=O	-	-	-	>1000 µM
O=C(O)C(=O)/C=C(\O)c1nc2cncnc2n1Cc1ccccc1	INTG	-	-	1000 µM
O=[N+]([O-])c1cccc([N+](=O)[O-])c1S(=O)(=O)c1ccccc1	-	-	-	>100 µM
COC(=O)c1ccc2cc(/C=C/c3ccc(OC)cc3)oc2c1OC	-	-	-	>>100 µM
CN(C)CCCNC(=O)c1cc(NC(=O)c2cc(NC(=O)c3cc(NC(=O)c4ncccc4C(=O)O)cn3C)cn2C)cn1C	-	-	-	>100 µM
Cc1ccnc(NS(=O)(=O)c2ccc(N=Nc3cc4ccccc4c(C(=O)O)c3O)cc2)n1	-	-	Mn2+	18 µM
Cn1cc(NC(=O)c2cc(NC(=O)CCCCCCCCCC(=O)Nc3cc(C(=O)Nc4cc(C(=O)NCCC(N)=[NH2+])n(C)c4)n(C)c3)cn2C)cc1C(=O)NCCC(N)=[NH2+]	-	-	-	64.8 µM
Cc1ccc(S(=O)(=O)c2c(C)cc(C)cc2C)cc1	-	-	-	>100 µM
N=C(N)c1ccc(N=NNc2ccc(C(=N)N)cc2)cc1	-	-	-	>100 µM
CC(C)(C)c1ccc(S(=O)(=O)Oc2ccc(C(c3c(O)c4ccccc4oc3=O)c3c(O)c4ccccc4oc3=O)cc2)cc1	-	-	-	3.1 µM
O=C(NC(=O)c1cn(CCN2CCNCC2)c(=O)[nH]c1=O)OCc1ccccc1	-	-	Mn2+	>200 µM
O=C(Oc1ccc(C(c2c(O)c3ccccc3oc2=O)c2c(O)c3ccccc3oc2=O)cc1)c1ccc(Cl)cc1	-	-	-	2.9 µM
O=[N+]([O-])c1cc(S(=O)(=O)c2ccc(S)c([N+](=O)[O-])c2)ccc1S	-	-	-	2.9 µM
CC1=C(O)C(=O)C(C2=C(O)C(=O)C(C)=C(O)C2=O)=C(O)C1=O	-	-	-	2.4 µM
Nc1c(Br)cc2c([nH]c(=O)c3cc(Br)ccc32)c1Br	-	-	Mg2+	187 µM
C[C@H](Cn1cnc2c(=O)[nH]c(N)nc21)OCP(=O)(O)O	-	-	-	300 µM
COC(=O)c1ccc2cc(/C=C/c3ccc(O)cc3)oc2c1O	-	-	-	>>100 µM
CN(C)CCCNC(=O)c1cc(NC(=O)c2cc(NC(=O)c3cc(NC(=O)c4ccnc(C(=O)Nc5cc(C(=O)Nc6cc(C(=O)Nc7cc(C(=O)NCCCN(C)C)n(C)c7)n(C)c6)n(C)c5)c4)cn3C)cn2C)cn1C	-	-	-	33.3 µM
O=C1NC(=O)c2c1ccc(O)c2O	-	-	-	>333 µM
Nc1ncnc2c1ncn2[C@H]1CC[C@@H](CO)O1	-	-	-	>1000 µM
O=[N+]([O-])c1cc(S(=O)(=O)c2ccc(O)c([N+](=O)[O-])c2)ccc1O	-	-	-	>100 µM
CC1CC2=Cc3c(O)c(O)cc(O)c3C(=O)C2=CO1	-	-	-	19 µM
NC(N)=Nc1ccc(S(=O)(=O)c2ccc(N=C(N)N)cc2)cc1	-	-	-	>100 µM
O=c1oc2ccccc2c(O)c1C(c1ccc(C(c2c(O)c3ccccc3oc2=O)c2c(O)c3ccccc3oc2=O)cc1)c1c(O)c2ccccc2oc1=O	-	-	-	1.1 µM
O=C(O)c1ccc2cc(/C=C/c3ccc(O)c(O)c3)oc2c1O	-	-	-	44.01 µM
O=C1Sc2ccccc2C(=O)N2CCCCC12	-	RF	-	450.5 µM
CN1C(=O)C(=O)/C(=C(\O)c2ccccc2)C1c1cccc(Cl)c1	-	-	-	>100 µM
O=S(=O)(O)c1cc(O)c(N=NC2S(=O)(=O)OCCOS2(=O)=O)c2ccccc12	-	-	Mg2+	>200 µM
O=C(NCc1ccc(F)cc1)c1nc(N2CCCCS2(=O)=O)c2cccnc2c1O	-	-	-	0.085 µM
O=C(Oc1ccc(C(c2c(O)c3ccccc3oc2=O)c2c(O)c3ccccc3oc2=O)cc1)c1ccc(Br)cc1	-	-	-	1.1 µM
CN(C)CCCNC(=O)c1cc(NC(=O)c2cc(NC(=O)c3cc(NC(=O)c4ccc(C(=O)Nc5cc(C(=O)Nc6cc(C(=O)Nc7cc(C(=O)NCCCN(C)C)n(C)c7)n(C)c6)n(C)c5)nc4)cn3C)cn2C)cn1C	-	-	-	0.31 µM
COC(=O)c1ccc2cc(/C=C/c3ccc(O)c(O)c3)oc2c1O	-	-	-	42.9 µM
O=C(/C=C/c1ccc(O)c(O)c1)NCCOC(=O)/C=C/c1ccc(O)c(O)c1	-	-	-	27.5 µM

For reference, 7 entries again:

{"compound": "O=C1c2c(ccc(O)c2O)CN1Cc1cccc(Cl)c1", "result": "72 µM"}
{"compound": "CC(C)(C)c1ccc(S(=O)(=O)Oc2ccc(C(c3c(O)c4ccccc4oc3=O)c3c(O)c4ccccc4oc3=O)cc2)cc1", "result": "3.1 µM"}
{"compound": "COC(=O)c1ccc2cc(/C=C/c3ccc(O)cc3)oc2c1O", "result": ">>100 µM"}
{"compound": "O=C=Nc1cccc(S(=O)(=O)c2cccc(N=C=O)c2)c1", "result": "100 µM"}
{"compound": "O=C(Oc1ccc(C(c2c(O)c3ccccc3oc2=O)c2c(O)c3ccccc3oc2=O)cc1)c1ccc(Cl)cc1", "result": "2.9 µM"}
{"compound": "O=C1NC(=O)c2c1ccc(O)c2O", "result": ">333 µM"}
{"compound": "O=C1Sc2ccc(Cl)cc2C(=O)N2CS(=O)CC12", "strain": "RF", "result": "237.5 µM"}